Experimental findings from PubChem BioAssay AID1918969 (ICCB-Longwood Screening Facility, Harvard Medical School, 2023) are described below.

Only a part is listed here, and it is no random draw. The source made the active and inactive calls. Cut-off read from the data, not from the text of the source: active = inhibition above about 27% (passing the limit was not always enough); inactive = the rest.

The subject of this assay is HCMV UL50-UL53 nuclear egress complex (human cytomegalovirus). Description: inhibitors of HCMV UL50-UL53 interaction, biochemical, HTRF (AID 1918969). Particulars: normalized percent inhibition, active compounds read high, concentration not given here. (In TR-FRET formats the signal depends on donor and acceptor labels being close together.)
One may read the inhibition as the relative decrease from the control value, in per cent. `O=C(NCC1(N2CCOCC2)CCCCC1)c1ccc([N+](=O)[O-])cc1`: the inhibition is inactive: -89.9%.

On to `Cc1c(C(=O)NCC2(N3CCOCC3)CCCCC2)oc2ccc(F)cc12`, for which the inhibition was inactive: 8.3%.

In the case of `O=C(NCC1(N2CCOCC2)CCCCC1)c1cc2ccccc2cc1O`, the inhibition is inactive: -33.5%.

Turning to `Cc1c(C(=O)NCC2(N(C)C)CCCCC2)oc2cc(Br)ccc12`, the inhibition was inactive: -13.3%.

As for `O=C1CCN(CCc2ccccc2)CC1`, the inhibition is inactive: -29.4%.

Regarding `CN1CCC(Nc2ccc(F)cc2)CC1`, the inhibition is inactive: -7.6%.

Regarding `COc1cc(C(=O)NCC2(N3CCOCC3)CCCCC2)cc(OC)c1OC`, the inhibition is inactive: -6.9%.

In the case of `O=C(NCC1(N2CCCCC2)CCCCC1)c1n[nH]c2ccccc12`, the inhibition was inactive: -17.1%.

Regarding `CCOc1ncccc1C(=O)NCC1(N2CCCCC2)CCCCC1`, the inhibition is inactive: -2%.

On to `CC(C)(C)OC(=O)N1CCC(Nc2ccccc2)CC1`, for which the inhibition is inactive: -10.3%.

Turning to `CCOc1ncccc1C(=O)NCC1(N(C)C)CCCCC1`, the inhibition is inactive: -8.5%.

Take `Cc1c(C(=O)NCC2(N(C)C)CCCCC2)oc2ccc(Cl)cc12`: the inhibition was inactive: -15%.

In the case of `CCN1CCC(Nc2ccc(F)cc2)CC1`, the inhibition was inactive: 2%.

On to `CC1CN(C)C(C)CC1Nc1ccccc1` (stereo not given), for which the inhibition is inactive: -24.2%.

Turning to `Cc1ccccc1C(=O)NCC1(N(C)C)CCCCC1`, the inhibition is inactive: -34.8%.

`CC1CN(CCc2ccccc2)C(C)CC1=O` (stereo not given): the inhibition was inactive: 2.7%.

Consider `CN(C)c1ccc(C(=O)NCC2(N3CCCCC3)CCCCC2)cc1`, for which the inhibition was inactive: -0.5%.

Take `CC(C)(C)c1ccc(C(=O)NCC2(N3CCOCC3)CCCCC2)cc1`: the inhibition is inactive: -21.2%.

As for `CN(C)C1(CNC(=O)c2ccc(C(C)(C)C)cc2)CCCCC1`, the inhibition was inactive: -27.4%.

Regarding `CC1CN(Cc2ccccc2)CCC1=O` (stereo not given), the inhibition is inactive: 8.1%.
